The target in this assay is SARS-CoV-2 spike protein, Omicron sublineage BA.2.75.2 (SARS-CoV-2), P0DTC2. Briefly: cell-based or functional assay.

B1: E8 (antibody, V domains shown)
VH: QVTLRESGPALVKPTQTLTLTCTFSGFSLSTRGVCVSWIRQPPGKALEWLAFIDWDDDKYYNTSLKTRLTISKDTSKNQVVLTMTNVHPVDTATYYCARISSHHGSSWCTTFDYWGQGALVTVSA
VL: DTVMTQSPLSLPVTPGEPASISCRSSQSLLNSNGYNYLDWYVQKPGQSPQLLIYLGSNRASGVPDRFSGSGSGTDFTLKISRVEAEDVGVYYCMQPLQTPLFTFGPGTKVEIK
The molecule B1 displayed an IC50 (pseudovirus neutralization) of 1.72 nM and an IC80 (pseudovirus neutralization) of 5.9 nM.

B2: B8 (antibody, V domains shown)
VH: EVQLVESGGALIQPGGSLRLSCAASGIIVSANYMSWVRQAPGKGLEWVSVIYSGGSTFYADSVKGRFTISRDNSKNTLYLEMNSLRAEDTAVYYCARDAPILGVSDWGQGTLVTVSS
VL: EIVMTQSPAILSVSPGERATLSCRASQSVAINLAWYQQKPGQAPRLLIYAASSRATGIPGRFSGSGSETNFTLTISSLQSGDFAVYYCQQYITWPPSYTFGQGTKLEIK
B2 registered an IC50 (pseudovirus neutralization) of 12.2 nM and an IC80 (pseudovirus neutralization) of 27.4 nM.

Source of the values: patent publication US20240109955A1.
